Data source: PubChem BioAssay AID1224833 (University of Georgia, 2016)

Aim: 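Human genes whose knock-down alters rotavirus replication in monkey cells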 (primary screen)
Cell system: monkey MA104 kidney cells
Reagents: siRNA pool against human genes, 50 nM
Timing: 48 h knock-down before infection; read 24 h after infection
Conditions: infection with rotavirus strain RV3 two days after transfection; infectious dose for this stage not given
Measurement: 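z-score of rotavirus antigen signal per well, from a fluorescent immunoassay, relative to non-targeting control wells on the same plate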
Direction: z-score vs non-targeting control: higher = more rotavirus replication than with non-targeting control
Hit rule: In these data the active calls have z-score vs non-targeting control at about -1 or lower, or at about 1 or higher
Calls: active = z-score beyond 1 either way; inactive = z-score within 1 of zero
The deposit covers about 12,000 reagents; this is an unselected part. About 5,600 of them (46%) were called active. 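Active calls cover z-scores past 1 in both directions, so they include lowered as well as raised rotavirus replication.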 Unmarked entries are inactive. Reagent sequences are not shown.

no.	target	z-score vs non-targeting control
1	OR52N2	-1.43 (active)
2	PRCD	-0.437
3	CTNS	-0.528
4	SPINK7	-1.51 (active)
5	CCNA2	-1.03 (active)
6	SLC39A11	-0.732
7	PDE5A	-0.835
8	STARD7	-1.5 (active)
9	SLFNL1	0.656
10	OPN1MW2	0.946
11	MRPL46	-0.617
12	RBPMS2	0.05
13	C11orf65	-0.739
14	IL25	-1.06 (active)
15	LRGUK	3.3 (active)
16	TNPO1	-0.607
17	WNT2B	-0.583
18	KRT3	-1.19 (active)
19	DKK4	1.16 (active)
20	LDHAL6B	-1.63 (active)
21	EHHADH	-1.7 (active)
22	EXOC2	-0.618
23	CDR2	0.289
24	KLHL25	2.58 (active)
25	MAOA	-0.762
26	HOXD13	0.582

Entries above whose target name begins with S or s:
target	z-score vs non-targeting control
SPINK7	-1.51 (active)
SLC39A11	-0.732
STARD7	-1.5 (active)
SLFNL1	0.656

More results follow.
no.	target	z-score vs non-targeting control
27	MOSPD2	-0.577
28	GNPAT	-1.47 (active)
29	ITIH2	-0.127
30	EMC7	-0.488
31	PRDM12	2.13 (active)
32	MAPDA	1.22 (active)
33	CC2D1A	-0.979
34	SLC35B2	0.46
35	TLL2	0.506
36	DCAF8	0.944
37	PSMC6	1.22 (active)
38	RAD17	-1.04 (active)
39	DHX16	-1.11 (active)
40	OR10H4	-3.78 (active)
41	PCOTH	1.32 (active)
42	CEP162	-0.0895
43	RPL13A	0.799
44	SON	-2.99 (active)
45	MFN1	-0.68
46	CDK6	3.97 (active)
47	SLC25A39	1.89 (active)
48	THAP4	1.17 (active)
49	PAQR4	1.39 (active)
50	SIRPB2	-1.35 (active)
51	TBC1D26	-1.99 (active)
52	ADTRP	-0.157
53	ELOVL7	0.556
54	IL15	-1.47 (active)
55	RUNX3	-0.52
56	RANBP1	-1.61 (active)
57	ACTMAP	-0.485
58	OR52B4	0.177
59	APPBP2	-0.599
60	INMT	1.34 (active)
61	HAUS6	-2.3 (active)
62	LPCAT3	0.269
63	NSMF	1.5 (active)
64	TMEM132E	-2.32 (active)
65	DEFA6	-0.771
66	ZBTB42	-0.571
67	SLC16A11	-0.682
68	OPHN1	-0.832
69	PNLIPRP3	-1.14 (active)
70	CCL15	-1.19 (active)
71	RHOXF1	-1.02 (active)
72	FAS	2.37 (active)
73	RBMS2	-0.314
74	DDX3Y	-2.15 (active)
75	AP1M2	0.0425
